IC50 data for one molecule are collected here from patent publication US12715896B2 (priority 2020, dated 2026).

Each structure is given as a SMILES string.

This test has as its target SARS-CoV-2 M^pro (Severe acute respiratory syndrome coronavirus 2, UniProt P0DTD1). The test can be described thus: FRET-based enzymatic assay for SARS-CoV-2 main protease. Format: biochemical. The note with it: read-out: SARS-CoV-2 M^pro IC50; initial velocity; mean ± S.E. from 2 to 3 independent experiments.

Consider `CCCC[C@H](NC(=O)[C@@H]1[C@@H]2[C@H](CN1C(=O)[C@@H](NC(=O)NC1(CS(=O)(=O)C(C)(C)C)CCCCC1)C(C)(C)C)C2(C)C)C(=O)C(=O)NC1CC1` [Narlaprevir (29), Narlaprevir], for which the IC50 is 5.73 ± 0.67 µM.
